{"source": "paper PMC10810642", "about": "(2024)", "binders": {"B1": {"name": "#11.4 mAb (antibody, V domains shown)", "VH": "QVQLQQSGAELVRPGTSVKISYKASGSTFTNYWLGWVKQRPGHGLEWIGDIYPGGGYANYNEKFKGKATLTADTSSSTAYMQLSSLTSEDSAVYFCARHRYEYFDVWGAGTTVTVSS", "VL": "DIQMTQSPSSLSASLGERVSLTCRASQDIGSSLNWLQQEPDGTIKRLIYATSSLDSGVPKRFSGSRSGSDYSLTISSLESEDFVDYYCLQYASSPYTFGGGTKLEIK"}}, "biological_target": "purified HA protein of the A/Anas/KR/2017/2.3.4.4b subclade (influenza A virus A/Anas/KR/2017 (H5N6, …))", "assay": "SPR"}
{"binder": "B1", "values": [{"measurement": "koff", "value": "7.4e-06", "unit": "s⁻¹"}]}
